This note sets out measurements from patent US20030073218A1, “High affinity inhibitors for target validation and uses thereof” (Princeton University, priority 1999, published 2003).

For orientation: pIC50 means −log10 of the IC50, conventionally taken in molar units. A lower pIC50 goes with a high IC50.

One experiment has as its target T1, I338G v-Src (Rous sarcoma virus subgroup A, UniProt P00524, DEL77-225/I338G).
T1 construct: screened against the catalytic domain of the target kinase, I338G v-Src; made in house; host or cells: E. coli DH5a, pGEX-KT
The experiment in a line: biochemical.

The target of a further experiment is T2, WT v-Src (Rous sarcoma virus subgroup A, UniProt P00524, DEL77-225).
T2 construct: mutant of the v-Src catalytic domain, (the XD4 fragment) were made as glutathione S-transferase (GST) fusion proteins; made in house; host or cells: E. coli (DH5a), pGEX-KT
The experiment in a line: biochemical.

pIC50: −log10 of the molar value.

As for `CC(C)(C)n1nc(-c2ccc3ccccc3c2)c2c(N)ncnc21` [Compound 6b, 4-amino-1-(tert-butyl)-3-(2′-naphthyl)pyrazolo[3,4-d]pyrimidine], the pIC50 against I338G v-Src was 8.82; against WT v-Src it was 6.00.
